Assays:
mAb AMA9G3 = type: binding, mouse; conditions: lateral flow, either hapten as test line
[1] = system: mAbs of the instant disclosure; assay: assays herein described using the mAbs, lower limit of detection; type: binding; conditions: generally
mAb 9G3.2 = type: binding, mouse; conditions: conservative estimate, 30% variation in signal

| Molecule | limit of detection (mAb AMA9G3) | lower limit of detection (LOD) [1] | limit of detection (LOD), mAb 9G3.2 assay (mAb 9G3.2) |
| --- | --- | --- | --- |
| γ-amanitin | around 1 ng/mL | 1 ng/mL | 1 ng/mL |
| β-amanitin | around 30 ng/mL | about 5 ng/mL |  |
| CC[C@H](C)[C@@H]1NC(=O)CNC(=O)[C@@H]2Cc3c([nH]c4cc(O)ccc34)[S+]([O-])C[C@@H](NC(=O)CNC1=O)C(=O)N[C@@H](CC(N)=O)C(=O)N1C[C@H](O)C[C@H]1C(=O)N[C@@H]([C@@H](C)[C@@H](O)CO)C(=O)N2 (stereo in doubt) [α-amanitin] | around 1 ng/mL | about 1 ng/mL | 1 ng/mL |
